From patent US20160264649A1 (published 2016)
Positions count from the first letter of the chain named.

How the values were obtained:
Test in all cases: cell-based or functional assay
[1] = target: HIV-1 Env of isolate MG RM-C-001 (subtype C) (HIV-1)
[2] = target: HIV-1 Env of isolate MG RM-C-002 (subtype C) (HIV-1)
[3] = target: HIV-1 Env of isolate MG RM-C-004 (subtype C) (HIV-1)
[4] = target: HIV-1 Env of isolate MG RM-C-005 (subtype C) (HIV-1)
[5] = target: HIV-1 Env of isolate MG RM-C-006 (subtype C) (HIV-1)
[6] = target: HIV-1 Env of isolate MG RM-C-007 (subtype C) (HIV-1)
[7] = target: HIV-1 Env of isolate MG RM-C-008 (subtype C) (HIV-1)
[8] = target: HIV-1 Env of isolate MG RM-C-009 (subtype C) (HIV-1)
[9] = target: HIV-1 Env of isolate MG RM-C-010 (subtype C) (HIV-1)
[10] = target: HIV-1 Env of isolate MG RM-C-012 (subtype C) (HIV-1)
[11] = target: HIV-1 Env of isolate MG RM-C-013 (subtype C) (HIV-1)
[12] = target: HIV-1 Env of isolate MG RM-C-014 (subtype C) (HIV-1)
[13] = target: HIV-1 Env of isolate MG RM-C-015 (subtype C) (HIV-1)
[14] = target: HIV-1 Env of isolate MG RM-C-017 (subtype C) (HIV-1)
[15] = target: HIV-1 Env of isolate MG RM-C-004 (subtype C) (HIV-1); remark: listed apart in the source
[16] = target: HIV-1 Env of isolate MG RM-C-005 (subtype C) (HIV-1); remark: listed apart in the source
[17] = target: HIV-1 Env of isolate MG RM-C-006 (subtype C) (HIV-1); remark: listed apart in the source
[18] = target: HIV-1 Env of isolate MG RM-C-007 (subtype C) (HIV-1); remark: listed apart in the source
[19] = target: HIV-1 Env of isolate MG RM-C-012 (subtype C) (HIV-1); remark: listed apart in the source
[20] = target: HIV-1 Env of isolate MG RM-C-015 (subtype C) (HIV-1); remark: listed apart in the source
[21] = target: HIV-1 Env of isolate MG RM-C-017 (subtype C) (HIV-1); remark: listed apart in the source
HIV-1 94UG103 Env = HIV-1 94UG103 Env (HIV-1)
HIV-1 92RW020 Env = HIV-1 92RW020 Env (HIV-1)
HIV-1 93UG077 Env = HIV-1 93UG077 Env (HIV-1)
HIV-1 92BR020 Env = HIV-1 92BR020 Env (HIV-1)
HIV-1 APV-13 Env = HIV-1 APV-13 Env (HIV-1)
HIV-1 APV-17 Env = HIV-1 APV-17 Env (HIV-1)
HIV-1 APV-6 Env = HIV-1 APV-6 Env (HIV-1)
HIV-1 93IN905 Env = HIV-1 93IN905 Env (HIV-1)
HIV-1 IAVI-C18 Env = HIV-1 IAVI-C18 Env (HIV-1)
HIV-1 IAVI-C22 Env = HIV-1 IAVI-C22 Env (HIV-1)
HIV-1 IAVI-C3 Env = HIV-1 IAVI-C3 Env (HIV-1)
HIV-1 92UG024 Env = HIV-1 92UG024 Env (HIV-1)
HIV-1 92UG005 Env = HIV-1 92UG005 Env (HIV-1)
HIV-1 92TH021 Env = HIV-1 92TH021 Env (HIV-1)
HIV-1 CMU02 Env = HIV-1 CMU02 Env (HIV-1)
HIV-1 NL43 Env = HIV-1 NL43 Env (HIV-1)

B1: 4995_P16 (PGT-145) (antibody, V domains shown)
VH: QVQLVQSGAEVKKPGSSVKVSCKASGNSFSNHDVHWVRQATGQGLEWMGWMSHEGDKTGLAQKFQGRVTITRDSGASTVYMELRGLTADDTAIYYCLTGSKHRLRDYFLYNEYGPNYEEWGDYLATLDVWGHGTAVTVSS
VL: EVVITQSPLFLPVTPGEAASLSCKCSHSLQHSTGANYLAWYLQRPGQTPRLLIHLATHRASGVPDRFSGSGSGTDFTLKISRVESDDVGTYYCMQGLHSPWTFGQGTKVEIK
IC50 [1]: > 50 µg/mL | IC50 [2]: 0.008 µg/mL | IC50 [3]: > 50 µg/mL | IC50 [4]: > 50 µg/mL | IC50 [5]: 0.01 µg/mL | IC50 [6]: > 50 µg/mL | IC50 [7]: > 50 µg/mL | IC50 [8]: 0.193 µg/mL | IC50 [9]: 0.141 µg/mL | IC50 [10]: 6.98 µg/mL | IC50 [11]: > 50 µg/mL | IC50 [12]: 5.82 µg/mL | IC50 [13]: 0.12 µg/mL | IC50 [14]: > 50 µg/mL

B2: 1496_C09 (PG9) (TCN-109) (antibody, V domains shown)
VH: QRLVESGGGVVQPGSSLRLSCAASGFDFSRQGMHWVRQAPGQGLEWVAFIKYDGSEKYHADSVWGRLSISRDNSKDTLYLQMNSLRVEDTATYFCVREAGGPDYRNGYNYYDFYDGYYNYHYMDVWGKGTTVTVSS
VL: QSALTQPASVSGSPGQSITISCNGTSNDVGGYESVSWYQQHPGKAPKVVIYDVSKRPSGVSNRFSGSKSGNTASLTISGLQAEDEGDYYCKSLTSTRRRVFGTGTKLTVLG
IC50 (µg/mL), pseudovirus neutralization [15]: 2.01 µg/mL | IC50 (µg/mL), pseudovirus neutralization [16]: 8.74 µg/mL | IC50 (µg/mL), pseudovirus neutralization [17]: 0.427 µg/mL | IC50 (µg/mL), pseudovirus neutralization [18]: 0.064 µg/mL | IC50 (µg/mL), pseudovirus neutralization [19]: 0.61 µg/mL | IC50 (µg/mL), pseudovirus neutralization [20]: 0.427 µg/mL | IC50 (µg/mL), pseudovirus neutralization [21]: 2.69 µg/mL

B3: 1460_G14 (PGG14) (antibody, V domains shown)
VH: QVLLVQSGTEVKKPGSSVKVSCQASGGAFSSYAFSWVRQAPGQGLEWMGMITPVFGETKYAPRFQGRLTLTAEESLSTTYMELRSLTSDDTAFYYCTRDRRVVPMATDNWLDPWGQGTLVTVSS
VL: DIQLTQSPSSLSASVGDRVTVTCRASQTIHTYLNWYQQIPGKAPKLLIYGASTLQSGVPSRFSGSGSGTDFTLTINSLQPEDFATYYCQQSYSTPRTFGQGTRLDIKR
neutralization IC50 (HIV-1 94UG103 Env): > 50 µg/mL | neutralization IC50 (HIV-1 92RW020 Env): > 50 µg/mL | neutralization IC50 (HIV-1 93UG077 Env): > 50 µg/mL | neutralization IC50 (HIV-1 92BR020 Env): > 50 µg/mL | neutralization IC50 (HIV-1 APV-13 Env): > 50 µg/mL | neutralization IC50 (HIV-1 APV-17 Env): > 50 µg/mL | neutralization IC50 (HIV-1 APV-6 Env): > 50 µg/mL | neutralization IC50 (HIV-1 93IN905 Env): > 50 µg/mL | neutralization IC50 (HIV-1 IAVI-C18 Env): > 50 µg/mL | neutralization IC50 (HIV-1 IAVI-C22 Env): > 50 µg/mL | neutralization IC50 (HIV-1 IAVI-C3 Env): > 50 µg/mL | neutralization IC50 (HIV-1 92UG024 Env): > 50 µg/mL | neutralization IC50 (HIV-1 92UG005 Env): > 50 µg/mL | neutralization IC50 (HIV-1 92TH021 Env): > 50 µg/mL | neutralization IC50 (HIV-1 CMU02 Env): > 50 µg/mL | neutralization IC50 (HIV-1 NL43 Env): 0.172 µg/mL

B4: 1456_P20 (PG20) (antibody, V domains shown)
VH: QVRLVQSGPEVKKPGSSVTVSCQASGGTFSSYAFTWVRQAPGQGLEWLGMVTPIFGEAKYSQRFEGRVTITADESTSTTSIELRGLTSEDTAIYYCARDRRAVPIATDNWLDPWGQGTLVTVSS
VL: B3 VL with T20S, V21I, H30N, T31N, I39T, T53N, S56N, N76S, Y92F
neutralization IC50 (HIV-1 94UG103 Env): > 50 µg/mL | neutralization IC50 (HIV-1 92RW020 Env): > 50 µg/mL | neutralization IC50 (HIV-1 93UG077 Env): > 50 µg/mL | neutralization IC50 (HIV-1 92BR020 Env): > 50 µg/mL | neutralization IC50 (HIV-1 APV-13 Env): > 50 µg/mL | neutralization IC50 (HIV-1 APV-17 Env): > 50 µg/mL | neutralization IC50 (HIV-1 APV-6 Env): 25.8 µg/mL | neutralization IC50 (HIV-1 93IN905 Env): > 50 µg/mL | neutralization IC50 (HIV-1 IAVI-C18 Env): > 50 µg/mL | neutralization IC50 (HIV-1 IAVI-C22 Env): > 50 µg/mL | neutralization IC50 (HIV-1 IAVI-C3 Env): > 50 µg/mL | neutralization IC50 (HIV-1 92UG024 Env): > 50 µg/mL | neutralization IC50 (HIV-1 92UG005 Env): > 50 µg/mL | neutralization IC50 (HIV-1 92TH021 Env): > 50 µg/mL | neutralization IC50 (HIV-1 CMU02 Env): > 50 µg/mL | neutralization IC50 (HIV-1 NL43 Env): 0.188 µg/mL

B5: 4980_N08 (PGT-143) (antibody, V domains shown)
VH: QVQLEQSGAEVKKPGSSVKVSCKASGNTFSKYDVHWVRQATGQGLEWVGWMSHEGDKTESAQRFKGRVTFTRDTSASTAYMELRGLTSDDTAIYYCTRGSKHRLRDYVLYDDYGLINYQEWNDYLEFLDVWGHGTAVTVSS
VL: DTVVTQSPLSLPVTPGEAASMSCTSTQSLRHSNGANYLAWYQHKPGQSPRLLIRLGSQRASGVPDRFSGSGSGTHFTLKISRVEPEDAAIYYCMQGLNRPWTFGKGTKLEIK
IC50 [1]: > 50 µg/mL | IC50 [2]: 6.77 µg/mL | IC50 [3]: > 50 µg/mL | IC50 [4]: 9.19 µg/mL | IC50 [5]: 0.369 µg/mL | IC50 [6]: > 50 µg/mL | IC50 [7]: > 50 µg/mL | IC50 [8]: 0.121 µg/mL | IC50 [9]: 0.171 µg/mL | IC50 [10]: > 50 µg/mL | IC50 [11]: > 50 µg/mL | IC50 [12]: 8.81 µg/mL | IC50 [13]: 0.085 µg/mL | IC50 [14]: 5.17 µg/mL

B6: 4970_K22 (PGT-144) (antibody, V domains shown)
VH: B5 VH with E5V, S30R, T69S, T74N, M81I, R98G, Y118Q
VL: B5 VL with P12S, P85A, E86D
IC50 [1]: > 50 µg/mL | IC50 [2]: > 50 µg/mL | IC50 [3]: > 50 µg/mL | IC50 [4]: > 50 µg/mL | IC50 [5]: 48.9 µg/mL | IC50 [6]: > 50 µg/mL | IC50 [7]: > 50 µg/mL | IC50 [8]: 0.561 µg/mL | IC50 [9]: 7.62 µg/mL | IC50 [10]: > 50 µg/mL | IC50 [11]: > 50 µg/mL | IC50 [12]: > 50 µg/mL | IC50 [13]: 0.236 µg/mL | IC50 [14]: 23 µg/mL
